Experimental data: PubChem BioAssay AID449762 (Southern Research Specialized Biocontainment Screening …, 2010)
Inconclusive results are not listed.

Tested on: M. tuberculosis H37Rv growth inhibition, 7H9 media
Test: M. tuberculosis growth inhibition, HTS (AID 449762);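 also: bacterial growth assessed after seven days of incubation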
Conditions: measured here: IC90 growth inhibition

O=C(OC1CN2CCC1CC2)C1c2ccccc2Oc2ccccc21 (stereo unspecified)
IC90: 44.3 µM
